Measured values published in US10208000B2, “Eis inhibitors” (priority 2015, dated 2019).

Test system: Mtb K204
Settings: anti-TB activity of KAN against Mtb K204 with compound; KAN line = KAN alone

Compound: CN(c1ccc2ccccc2c1)S(=O)(=O)c1ccc2[nH]c(=O)c(=O)[nH]c2c1 [Compound 46]
- K204 MICKAN: ≤ 1.25 μg/mL and ≤1.25 μg/mL

A number of entries come with more than one value. This is not the full list of results. The source may hold further records. The records of an entry do not match, cause unknown; they may come from other doses, times, organisms or constructs than stated.
